Compound potency records, mixed from different reports. Data source: NIAID ChemDB in PubChem.

All rows: tests on isolated targets; agent: Hepatitis C virus; protein: NS5B polymerase

Neighbouring rows are from separate reports. Percent inhibition refers to the dose given; in toxicity tests it is the harm to the cells. ICn is the concentration giving n% inhibition. Blank or dashed fields: not listed here. Two numbers with a dash give a range or band.

| compound | strain | measure | dose | result |
|---|---|---|---|---|
| O=C(N[C@@H](Cc1c[nH]c2ccc(O)cc12)C(=O)O)c1ccc2c(c1)nc(-c1ccoc1)n2[C@@H]1C2CCC23CC3[C@@H]1CO |  | IC50 |  | 1–5 µM |
| COc1ccc(-c2ccc(Cl)cc2)c(-c2ccc3cc(-c4nc5cc(C(=O)O)ccc5n4C4CCCCC4C)ccc3n2)c1 |  | inhibition | 100 µM | 102% |
| CCOC(=O)c1ccc(CC)nc1Nc1ccc(N2CCOCC2)cc1 |  | inhibition | 0.1 µg/mL | 30–55% |
| C=C[C@@H]1C[C@]1(NC(=O)c1ccc2c(c1)nc(-c1ccoc1)n2C1CCCCC1)C(=O)Nc1ccc(/C=C/C(=O)O)cc1 |  | IC50 |  | <0.5 µM |
| O=C(N[C@H](C(=O)O)c1c[nH]c2ccc(O)cc12)c1ccc2c(c1)nc(-c1ccccc1)n2C1CCCCC1 |  | IC50 |  | <1 µM |
| CC(NC(=O)c1ccc2c(c1)nc(-c1ccoc1)n2C1CCCCC1)C(=O)Nc1cccc(CC(=O)O)c1 |  | IC50 |  | 0.5–5 µM |
| CCN(CC)c1ccc(Nc2cc(N3CCN(C(=O)c4ccncc4)CC3)nc(SCc3ccccc3)n2)cc1 |  | inhibition | 0.1 µg/mL | 30–55% |
| O=C(N[C@@H](Cc1c[nH]c2ccc(O)cc12)C(=O)O)c1ccc2c(c1)nc(-c1ccoc1)n2C1CC2CCC1C2 |  | IC50 |  | <1 µM |
| CCSc1nc(N2CCN(C(=O)c3ccccc3)CC2)cc(N(C)c2ccc(N(C)C)cc2)n1 |  | inhibition | 0.1 µg/mL | 30–55% |
| O=C(O)/C=C/c1ccc(NC(=O)C(CC2CCCCC2)NC(=O)c2ccc3c(c2)nc(-c2ccoc2)n3C2CCCCC2)cc1 |  | IC50 |  | 0.5–5 µM |
| CCC[C@]1(CC(=O)O)OCCc2c1[nH]c1c(C)ccc(C#N)c21 | BK (genotype 1B) | IC50 |  | 0.3 µM |
| CCCCSc1nc(Nc2ccc(N(CC)CC)cc2)cc(N2CCN(C(=O)c3ccncc3)CC2)n1 |  | inhibition | 0.1 µg/mL | 30–55% |
| Nc1nc(C[C@H](Cc2ccc(OCC(=O)O)cc2)NC(=O)c2ccc3c(c2)nc(-c2ccoc2)n3C2CCCCC2)cs1 |  | IC50 |  | <1 µM |
| C[C@@H]1CCCC[C@H]1n1c(-c2ccccc2)nc2cc(C(=O)NC3(C(=O)Nc4ccc(/C=C/C(=O)O)cc4)CCCC3)ccc21 |  | IC50 |  | 0.5–5 µM |
| COc1cccc(O)c1-c1ccc2cc(-c3nc4cc(C(=O)O)ccc4n3C3CCCCC3)ccc2n1 |  | inhibition | 33 µM | 105% |
| O=C(O)COc1ccc([C@H](NC(=O)c2ccc3c(c2)nc(-c2ccoc2)n3C2CCCCC2)C(=O)O)cc1 |  | IC50 |  | <1 µM |
| C[C@@H](NC(=O)c1ccc2c(c1)nc(-c1ccoc1)n2C1CCCCC1)C(=O)Nc1nc(-c2ccc(OCC(=O)O)cc2)cs1 |  | IC50 |  | 0.5–5 µM |
| CCCCc1ccc(C(=O)O)c(Nc2ccc(N3CCNCC3)cc2)n1 |  | inhibition | 0.1 µg/mL | 30–55% |
| O=C(O)COc1ccccc1CN1CCC(CNC(=O)c2ccc3c(c2)nc(-c2ccoc2)n3C2CCCCC2)C1 |  | IC50 |  | 10–25 µM |
| CCOC(=O)/C=C/c1ccc(NC(=O)C2(NC(=O)c3ccc4c(c3)nc(-c3ccoc3)n4C3CCCCC3)CCCC2)cc1 |  | IC50 |  | 5–25 µM |
| O=C(O)COc1ccc2[nH]cc(C[C@H](NC(=O)c3ccc4c(c3)nc(-c3ccc(C(=O)NCCNC(=S)Nc5ccc(-c6c7ccc(=O)cc-7oc7cc(O)ccc67)cc5C(=O)O)cc3)n4C3CCCCC3)C(=O)O)c2c1 |  | IC50 |  | <1 µM |
| COc1ccc(-c2ccc(Cl)cc2)c(-c2ccc3cc(-c4nc5cc(C(=O)O)ccc5n4C4CC56CCC5CCC46)ccc3n2)c1 |  | inhibition | 33 µM | 101% |
| CCSc1nc(Nc2ccc(N(CC)CC)cc2)cc(N2CCN(C(=O)c3ccccc3)CC2)n1 |  | inhibition | 0.1 µg/mL | 30–55% |
| O=C(O)c1cnc2c(c1)nc(-c1ccc3nc(-c4cc(O)ccc4-c4ccc(Cl)cc4)ccc3c1)n2C1CCCCC1 |  | inhibition | 100 µM | 100% |
| CCCCOC(=O)c1ccc(CCCC)nc1Nc1ccc(N2CCOCC2)cc1 |  | inhibition | 0.1 µg/mL | 30–55% |
| O=C(NC(Cc1c[nH]c2ccc(O)cc12)C(=O)O)c1ccc2c(c1)nc(-c1ccoc1)n2C1CCCCC1 |  | IC50 |  | <1 µM |
| O=C(O)/C=C/c1ccc(NC(=O)C(NC(=O)c2ccc3c(c2)nc(-c2ccoc2)n3C2CCCCC2)c2ccccc2)cc1 |  | IC50 |  | 0.5–5 µM |
| O=C(N[C@H](C(=O)O)c1c[nH]c2ccc(O)cc12)c1ccc2c(c1)nc(C(F)(F)F)n2C1CCCCC1 |  | IC50 |  | 1–5 µM |
| O=C(O)c1ccc2c(c1)nc(-c1ccc3nc(-c4cc(C(=O)N5CCCC5)ccc4-c4ccc(F)cc4)ccc3c1)n2C1CCCCC1 |  | inhibition | 33 µM | 100% |
| CN(C(=O)Cc1ccc2c(c1)nc(-c1ccoc1)n2C1CCCCC1)[C@H](Cc1ccc(O)cc1)C(=O)O |  | IC50 |  | 10–25 µM |
| O=C(NC(Cc1c[nH]c2ccc(O)cc12)C(=O)O)c1ccc2c(c1)nc(-c1ccoc1)n2C1CCCCC1 |  | Ki |  | 0.15 µM |
| O=C(O)COc1ccc(CC(NC(=O)c2ccc3c(c2)nc(-c2ccoc2)n3C2CCCCC2)C(=O)O)cc1Cl |  | IC50 |  | <1 µM |
| CC[C@@H](NC(=O)c1ccc2c(c1)nc(-c1ccoc1)n2C1CCCCC1)C(=O)Nc1ccc(/C=C/C(=O)O)cc1 |  | IC50 |  | <0.5 µM |

4 of the rows above, restated:

compound | strain | measure | dose | result
O=C(O)/C=C/c1ccc(NC(=O)C(NC(=O)c2ccc3c(c2)nc(-c2ccoc2)n3C2CCCCC2)c2ccccc2)cc1 |  | IC50 |  | 0.5–5 µM
COc1ccc(-c2ccc(Cl)cc2)c(-c2ccc3cc(-c4nc5cc(C(=O)O)ccc5n4C4CCCCC4C)ccc3n2)c1 |  | inhibition | 100 µM | 102%
CCOC(=O)c1ccc(CC)nc1Nc1ccc(N2CCOCC2)cc1 |  | inhibition | 0.1 µg/mL | 30–55%
COc1ccc(-c2ccc(Cl)cc2)c(-c2ccc3cc(-c4nc5cc(C(=O)O)ccc5n4C4CC56CCC5CCC46)ccc3n2)c1 |  | inhibition | 33 µM | 101%